Reference: patent publication US20260008801A1, “BIO-BASED SURFACTANTS DERIVED FROM CARBOHYDRATES” (COÖPERATIE KONINKLIJKE COSUN U.A., priority 2022, published 2026)

System: activated sludge from a municipal wastewater treatment plant (WWTP)
Test: Biodegradability, OECD 301A DOC Die-Away Test (adjusted)

Structure (SMILES) | time within which no compound could be detected (acetate+sludge) | biodegradability (in 15 days, OECD 301 procedure, activated sludge) | time within which no compound could be detected (without acetate)
CCCCCCCCCCCC[N+](C)([O-])C[C@H](O)[C@@H](O)[C@@H](O)[C@H](O)C(=O)O (stereo partly drawn) [Compound 43, N-methyl-N-dodecyl-D-galacturonic acid amine oxide] | ≤ 5 days |  | 
CCCCCCCCN(C)C[C@H](O)[C@@H](O)[C@@H](O)[C@H](O)C(=O)O [Compound 31, N-methyl-N-octyl-D-galacturonic acid amine] | ≤ 15 days | 90% | ≤ 20 days
